System: influenza A/HK/68
Experiment: Lethal influenza challenge model, intranasal monotherapy
Conditions: 20 μg i.n. […] challenge, ~2 LD50; FIG. 3

SMILES	protection against influenza challenge (disease index, weight loss, mortality)
CCCCCCCCCCCCCC(=O)O[C@H](CCCCCCCCCCC)CC(=O)N[C@H]1[C@H](OC[C@H](NC(=O)C[C@@H](CCCCCCCCCCC)OC(=O)CCCCCCCCCCCCC)C(=O)O)O[C@H](CO)[C@@H](OP(=O)(O)O)[C@@H]1OC(=O)C[C@@H](CCCCCCCCCCC)OC(=O)CCCCCCCCCCCCC.CCN(CC)CC [RC-512]	substantial protection against influenza challenge
CCCCCCCCCCC[C@H](CC(=O)N[C@H]1[C@H](OC[C@H](NC(=O)C[C@@H](CCCCCCCCCCC)OC(=O)CCCCCCCCCC)C(=O)O)O[C@H](CO)[C@@H](OP(=O)(O)O)[C@@H]1OC(=O)C[C@@H](CCCCCCCCCCC)OC(=O)CCCCCCCCCC)OC(=O)CCCCCCCCCC.CCN(CC)CC [RC-538]	substantial protection against influenza challenge
CCCCCCCCCCCC(=O)O[C@H](CCCCCCCCCCC)CC(=O)N[C@H]1[C@H](OC[C@H](NC(=O)C[C@@H](CCCCCCCCCCC)OC(=O)CCCCCCCCCCC)C(=O)O)O[C@H](CO)[C@@H](OP(=O)(O)O)[C@@H]1OC(=O)C[C@@H](CCCCCCCCCCC)OC(=O)CCCCCCCCCCC.CCN(CC)CC [RC-560]	substantial protection against influenza challenge

Source: US8318697B2, “Prophylactic and therapeutic treatment of infectious and other diseases with mono- and disaccharide-based compounds” (Corixa Corporation, priority 2000, dated 2012)
